Experimental findings from patent publication US6177441A, “Treating red blood cell solutions with anti-viral agents” (Cerus Corporation, priority 1998, dated 2001) are described below.

The subject of experiment [1] is cell-associated HIV. The experiment can be described thus: Inactivation of cell-associated HIV in H9 cells, microtiter plaque assay (Example 8). To be noted: for Log Titer: no QM 5.5.
The subject of the next experiment is cell-free HIV. The experiment is described as follows: Cell-free HIV inactivation in the presence of red blood cells (Example 9). It is filed as cell-based.
The subject of experiment [2] is cell-associated HIV. The experiment is described as follows: Cell-associated HIV inactivation in the presence of red blood cells (Example 9). It is filed as cell-based, HIVIIIB. As to conditions: for Log Titer: 0 μg/ml 5.5 (QM), 5.7 (ICR-170).

Consider `COc1ccc2nc3cc(Cl)ccc3c(NC(C)CCCN(CCCl)CCCl)c2c1.Cl.Cl` (stereo not shown), for which the “Log Reduction” value is recorded as -2.8 with cell-associated HIV [1] (3 μg/ml); over -4.8 with cell-associated HIV [1] (10 μg/ml); over -5.2 in the experiment with cell-associated HIV [1] (30 μg/ml); -3.75 with cell-associated HIV [1] (100 μg/ml); over -5.2 in the experiment on cell-associated HIV [1] (150 μg/ml); over 4.3 with cell-free HIV (40 μg/ml). In addition, the “Log Reduction” value with cell-free HIV (80 μg/ml) is given as over 4.3; in the experiment with cell-associated HIV [2] (10 μg/ml) it was 1.1. Further, the “Log Titer” value came out at 2.7 in the experiment with cell-associated HIV [1] (3 μg/ml); 1.75 in the experiment with cell-associated HIV [1] (100 μg/ml); 3.9 pfu/ml in the experiment with cell-free HIV (10 μg/ml, 0 μg/ml 5.7); 4.4 with cell-associated HIV [2] (10 μg/ml); 2.4 with cell-associated HIV [2] (80 μg/ml).
